Source: the supplement of paper PMC9931576
Human monoclonal antibodies against the spike receptor-binding domain (heavy:light variable regions). IC50 against pseudoviruses bearing the spike of naturally observed variants; lower = stronger; >10 µg/ml means not reached at the top dose. No active / inactive call. The stated detection limit is 0.0005 µg/ml; values near or below 0.001 µg/ml lie at the floor of the assay.

B1: COV2-2677 (protein)
chain 1: QLQLQESGPGLVKPSETLSLTCTVSGGSISSSSYYWGWIRQPPGKGLEWIGSMYYSGSTYYNPSLKSRVTISVDTSKNQFSLKLSSVTAADTAVYYCARLLWLRGHFDYWGQGTLVTVSS
chain 2: NFMLTQPHSVSESPGKTVTISCTGSSGSIASNYVQWYQQRPGSAPTTVIYEDNQRPSGVPDRFSGSIDSSSNSASLTISGLKTEDEADYYCQSYDSSNYWVFGGGTKLTVL
B2: BD56-1722 (protein)
chain 1: QVQLVQSGAEVKKPGSSVKVSCRASGGTFSSYTLSWVRQAPGQGLEWMGRILPILGIATYVHKFQGRVTITADKSTSTAYMELSSLRSEDTAVYYCAREDCISTTCHGPKWFDPWGQGTLVTVSS
chain 2: QSVLTQPPSVSGAPGQRVTISCTGTNSNIGAGYDVHWYQQLPGTAPKLLIFVYSNRPSGVPDRFSGSKSGTSASLAITGLQAEDEADYYCQSYDSSLSEDVFGTGTKVTVL
B3: BD56-1723 (protein)
chain 1: EVQLVESGGALVQAGGSLRLSCGASGYIFSSYWMTWVRQAPGKGLEWVANIKQDGSGMYYADSVKGRFTISRDNAKNSLFLQMNSLRVEDTAVYYCARDPVDGYIDSWGRGTLVTVSS
chain 2: EIVMTQSPATLSVSPGERVTLSCRASQYISSSLAWYQQKPGQAPRLLISGASTRAATIPARFSGGGSGTEFTLTISSLQSEDFAVYYCQQYYSWPPWTFGQGTKVEIK
B4: BD56-1725 (protein)
chain 1: QVQLVQSGAEVKKPGSSVKVSCEASGGTFSSYTFSWVRQAPGQGLEWMGRIIPILGIANYAQNFQGRVTITADKSTSTAYVELSSLRSEDTAIYYCARDIGYSGSGSNWYFDLWGRGTLVTVSS
chain 2: QSVLTQPPSVSGAPGQRVTISCTGSSSNIGAGYDVHWYQQLPGTAPKLLIYINQNRPSGVPDRFSGSKSGTSASLAITGLQADDEADYYCQSYDSSLSGSVFGGGTKLTVL
B5: BD56-1726 (protein)
chain 1: EVQLVESGGDLVQPGGSLRLSCSASGFTFSNYAMYWVRQAPGKRLEYVSAISSDGGSTYYSDSVKGRFTISRDNSKNTLYLQMSSLRTEDTAVYYCVKDLGDILTVDVFDIWGQGTMVTVAS
chain 2: DIQMTQSPSSLSASVGDRVTITCRASQIISRYLNWYQQKPGKAPKLLIYTASSLQSGVPSRFSGSGSGTEFTLTISSLQPEDFATYYCQQSYSTPGTFGQGTKVEIK
B6: BD56-1728 (protein)
chain 1: QVQLVQSGAEGKKPGSSVKVSCKASGDTFRSYAISWVRQAPGQGLEWMGKIIPPLGVANYAQRFQGRVTITADRSTHTAYMELSRLRSEDTAIYFCARDESRSCSSTTCFDYWGQGTLVTVSS
chain 2: QSVLTQPPSVSGAPGQRVTISCTGDNSNIGAGYDIHWYQWLPGTAPKLLIYNNNIRPSGVPDRFSGSKSGTSASLAIAGLQAEDEADYFCQSYDSSLSDVVFGGGTKLTVL

molecular target: SARS-CoV-2 Omicron BA.1 spike pseudovirus; assay: pseudovirus neutralization IC50; higher = weaker neutralization
Protocol: (§1)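 Single-round VSV luciferase pseudovirus mixed with antibody dilutions for 1 h and put on Huh-7 cells for about a day; IC50 from the dose curve.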

Binder	pseudovirus neutralization IC50
B1	> 10 µg/mL
B2	0.0174 µg/mL
B3	> 10 µg/mL
B4	0.0388 µg/mL
B5	> 10 µg/mL
B6	0.0423 µg/mL

molecular target: SARS-CoV-2 Omicron BA.2 spike pseudovirus; assay: as above
Protocol: as §1

Binder	pseudovirus neutralization IC50
B1	> 10 µg/mL
B2	0.00959 µg/mL
B3	> 10 µg/mL
B4	0.014 µg/mL
B5	> 10 µg/mL
B6	0.0836 µg/mL

molecular target: SARS-CoV-2 Omicron BA.2.75 spike pseudovirus; assay: as above
Protocol: as §1

Binder	pseudovirus neutralization IC50
B1	> 10 µg/mL
B2	0.0321 µg/mL
B3	> 10 µg/mL
B4	0.0492 µg/mL
B5	> 10 µg/mL
B6	0.147 µg/mL

molecular target: SARS-CoV-2 Omicron BA.5 spike pseudovirus; assay: as above
Protocol: as §1

Binder	pseudovirus neutralization IC50
B1	> 10 µg/mL
B2	1.2 µg/mL
B3	> 10 µg/mL
B4	6.91 µg/mL
B5	> 10 µg/mL
B6	> 10 µg/mL

molecular target: SARS-CoV-2 Omicron BQ.1.1 spike pseudovirus; assay: as above
Protocol: as §1

Binder	pseudovirus neutralization IC50
B1	> 10 µg/mL
B2	> 10 µg/mL
B3	> 10 µg/mL
B4	> 10 µg/mL
B5	> 10 µg/mL
B6	> 10 µg/mL

molecular target: SARS-CoV-2 Omicron XBB spike pseudovirus; assay: as above
Protocol: as §1

Binder	pseudovirus neutralization IC50
B1	> 10 µg/mL
B2	1.33 µg/mL
B3	> 10 µg/mL
B4	3.81 µg/mL
B5	> 10 µg/mL
B6	> 10 µg/mL

molecular target: SARS-CoV-2 early D614G spike pseudovirus; assay: as above
Protocol: as §1

Binder	pseudovirus neutralization IC50
B1	> 10 µg/mL
B2	0.0207 µg/mL
B3	> 10 µg/mL
B4	0.135 µg/mL
B5	> 10 µg/mL
B6	0.123 µg/mL
